Data from ChEMBL document CHEMBL1250431, “Morphinans and isoquinolines: acetylcholinesterase inhibition, pharmacophore modeling, and interaction with opioid receptors” (Bioorg Med Chem, 2010).

Chains of the proteins cited; added tags and fusions are not shown.
UniProt P41144, whole entry: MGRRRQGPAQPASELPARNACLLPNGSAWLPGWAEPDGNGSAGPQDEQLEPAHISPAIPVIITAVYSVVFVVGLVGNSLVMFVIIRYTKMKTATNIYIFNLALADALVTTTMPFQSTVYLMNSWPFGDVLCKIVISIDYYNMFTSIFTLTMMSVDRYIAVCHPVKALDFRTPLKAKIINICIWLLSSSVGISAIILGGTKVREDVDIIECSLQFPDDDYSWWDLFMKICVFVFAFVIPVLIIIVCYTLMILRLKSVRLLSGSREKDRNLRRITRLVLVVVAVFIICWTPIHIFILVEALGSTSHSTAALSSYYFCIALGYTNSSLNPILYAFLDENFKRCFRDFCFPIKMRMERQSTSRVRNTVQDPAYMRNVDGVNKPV

Target: Kappa-type opioid receptor (Cavia porcellus, UniProt P41144)
Assay: Displacement of [3H]U69593 from kappa opioid receptor in guinea pig brain membrane
Assay type: cell membranes

## CO[C@@]12CCC(=O)[C@@H]3Oc4c(O)ccc5c4[C@@]31CCN(C)[C@@H]2C5
  Ki: 2660 nM
